In the assay the target is Human immunodeficiency virus type 1 reverse transcriptase (Human immunodeficiency virus 1, UniProt Q72547). The assay is described as follows: Inhibition of wild-type HIV-1 reverse transcriptase incubated for 1 hr in presence of biotin-dUTP by ELISA.

The IC50 is the concentration that inhibits the measured activity by half. As to `Cc1cc(C#N)cc(C)c1Oc1nc(Nc2ccc(C#N)cc2)nc(N)c1Br` [ETRAVIRINE], the IC50 was 29 nM.

For the origin of these results see ChEMBL document CHEMBL5614387, “Discovery of 2,4,6-trisubstituted pyrimidine derivatives as novel potent HIV-1 NNRTIs by exploiting the tolerant region II of the NNIBP” (Eur J Med Chem, 2024).
